Library screen at single concentrations

Measurements from “University of Dundee, Small-Polar-MMV Screening Library” (2021), ChEMBL document CHEMBL3988442.

A: 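Phenotypic screen: M. tuberculosis growth, glucose 7H9 medium, 3 days; the read-out is not stated. Concentration: 50 µM. The record gives no direction; compounds that gave an IC50 in retests scored well above the rest, so higher reads as more growth inhibition. About 69,000 compounds were tested under these conditions; 1.1% (about 760) showed 50% or more at least once.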
B: 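Whole-cell growth test on Mycobacterium tuberculosis, read after 4 days in a medium based on cholesterol and the lipid DPPC; the read-out is not stated. Tested at 50 µM. Direction is inferred from retests: higher values go with more growth inhibition. Size under these conditions: about 69,000 compounds, about 370 of them at 50% or above in at least one test.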

Values are the deposited “Percent Effect”, in %. How 0% and 100% were set is not recorded. Most values in the screen are low, and negative values occur. The entries come from a sample that favours strong results. Two or more numbers in one place are separate tests of the same structure; such repeats can differ widely.

CN(C)c1ncc2c(n1)C1(CCN(Cc3ccccc3)C1)COC2.O=C(O)C(F)(F)F (centres unmarked) read A: 25.75%. For CCN1CCN(C(=O)C2CCOC2)c2ccccc21 (centres unmarked) the result was A: -16.02%. Result for CCNC(=O)NC(=O)CN(CC(C)O)c1ccccc1 (centres unmarked) was A: 30.28%. COc1ccc(CN2CCCC(N3CCCC3)C2)cc1Cn1cncn1 (centres unmarked) gave A: -15.01%. c1ccc(Cc2noc(CN3CCCCC3Cn3cccn3)n2)cc1 (centres unmarked) gave A: 9.009%.

c1cnn(CC2CCN(c3nc(C4CC4)nc4c3CCNCC4)CC2)c1 gave A: 12.63%. With N#CC1(C(=O)NCc2ccc(F)cc2)CCCC1 the screen gave B: -17.3%. c1csc(N2CCCN(Cc3noc(C4CC4)n3)CC2)n1 read B: -14.69%. Cn1ccnc1-c1ccc(NC[C@H]2CCc3ccccc3O2)nn1 read A: 47.52%. CN(CCc1cccs1)CCc1nccs1 gave A: 2.576%; B: 15.22%.

O=C(NCCNc1ccc(C(F)(F)F)cn1)c1cc(Cl)ccc1F read B: 33.61%. Result for Cc1nsc(C(=O)NCCc2ccc(F)cc2)n1 was A: 57.66%; B: 53.63%. Result for Cc1cccc(-c2ccc(C(=O)N3CCSCC3)c(=O)[nH]2)c1 was A: 27% & 73.18%. For CCC(=O)NCC(Cc1cccc(F)c1)n1cccc1 (centres unmarked) the result was A: 30.68% & 7.27%. CCOc1cccc(C(=O)Nc2ccncc2)c1 read A: -9.741%.

CC(CNC(=O)N1CCSCC1)Cc1cccs1 (centres unmarked) read A: 20.57%; B: 29.26% & 19.11%. Fc1ccc(CN2CCCN(Cc3cscn3)CC2)cc1 read A: 18.07%. Result for CC(Cn1cccn1)NS(=O)(=O)Cc1ccccc1 (centres unmarked) was A: 97.1%. Result for COCCNC(=O)CN1CC=C(n2c(C)nc(=O)c3ccccc32)CC1 was A: 22.71%. With Cc1ccn(-c2ccc(NCc3ccnc(N4CCCCC4)c3)nn2)n1 the screen gave B: 20.39% & -37.46%.

CCNc1cc2c(nn1)CCN(C(=O)C1COc3ccccc3O1)C2 (centres unmarked) gave A: 17.07%; B: 7.398%. c1cncc(CN2CCCC(c3nnc(-c4cnccn4)o3)C2)c1 (centres unmarked) read B: 86.35%. Cc1nc2c(c(N(C)C)n1)CCN(C(=O)CN1CCC(O)CC1)C2 gave B: -5.632%. Cc1nc(CSCCC(=O)Nc2cccc(N3CCNC3=O)c2)cs1 read A: -0.6651% & 71.79%.